A mixed list of measured activities; the numbers were collected in NIAID ChemDB.

Shared fields: growth or infection tests; species: HIV-1; cells: CEM; measure: EC50

ECn is the concentration giving n% inhibition of infection, replication or growth.

compound	strain	mutations	read by	result
C=CCC(c1cc(C)ccc1C)S(=O)(=O)c1cccc[n+]1[O-]	IIIB	-	syncytia	10 µg/mL
Cc1occc1C(=S)Nc1ccc(Cl)c(SCC=C(Cl)Cl)c1	TIBO R82913-resistant (RT K103N)	RT-K103N	syncytia	0.08 µg/mL
Cc1c(O)cccc1C(=O)N[C@@H](CSc1ccccc1)[C@@H](CN1C[C@H]2CCCC[C@H]2C[C@H]1C(=O)NC(C)(C)C)OC(=O)NCCCCOc1ccc(C[C@H](N)C(=O)O)cc1	LAI	-	RT activity	>10 µM
COc1ccc(C2C(C#N)=C(N)N3C(=C2C#N)Oc2ccccc23)cc1	-	-	cytopathic effect / XTT	>200 µM
CC(C)c1c(Sc2ccccc2)n(COCCO)c(=O)[nH]c1=O	IIIB	RT-Y188H	syncytia	>10 µM
CCn1cc(C(=O)O)c(=O)c2cc(F)c(N3CCN(CN4C(=O)O[C@](C#CC5CC5)(C(F)(F)F)c5cc(Cl)ccc54)CC3)c(F)c21	IIIB	-	MTT	0.00258 µM
[O-][n+]1ccccc1SCc1ccccc1	IIIB	-	syncytia	≥100 µg/mL
O=S(=O)(Nc1nnc2c3ccccc3cnn12)c1ccc(F)cc1S	RF	-	cytopathic effect / XTT	48 µM
Cc1ccccc1C(C(N)=O)S(=O)c1cccc[n+]1[O-]	IIIB	-	syncytia	>100 µg/mL
CC[C@H](C)N1C[C@H](COCCOC)n2cc(-c3nnc(Cc4ccc(F)cc4F)s3)c(=O)c(O)c2C1=O	IIIB	-	XTT	0.016 µM
Cc1cn([C@@H]2O[C@H](CO)[C@@H](O)[C@@H]2O)c(=O)n(C)c1=O	IIIB	-	microscopy	>400 µg/mL
Cc1occc1C(=S)Nc1ccc(Cl)c(OCC=C(Cl)Cl)c1	HEPT-resistant (RT Y188H)	RT-Y188H	syncytia	2 µg/mL
CC(C)(C)NC(=O)c1ccccc1SSc1ccccc1C(=O)NC(C)(C)C	-	-	cytopathic effect / XTT	58 µM
CCCCNC(=S)C(C#N)c1nc2ccccc2o1	-	-	cytopathic effect / XTT	32.6 µM
CCOC(=O)c1ccc(NC(=O)c2ccccc2SSc2ccccc2C(=O)Nc2ccc(C(=O)OCC)cc2)cc1	-	-	cytopathic effect / XTT	9 µM
CCOCn1c(Sc2ccccc2)c(C(C)C)c(=O)[nH]c1=S	IIIB	-	syncytia	0.009 µM
Cc1cc(S(=O)(=O)n2cccc2)c(SCC(=O)n2cccc2)cc1Cl	-	-	cytopathic effect / XTT	>200 µM
C=C(Cl)COc1cc(NC(=S)c2ccoc2C)ccc1Cl	Nevirapine-resistant isolate (RT V106A)	RT-V106A	syncytia	0.51 µg/mL
Cc1cc(C)cc(Sc2c(C(C)C)c(=O)[nH]c(=S)n2COCCO)c1	IIIB	Nevirapine resistant (RT Y181C)	syncytia	0.34 µM
CCCCCCCCCCCC(c1cc(C)ccc1C)S(=O)(=O)c1cccc[n+]1[O-]	IIIB	-	syncytia	>20 µg/mL
COc1ccc(NC(=O)C2=C(C)OCCS2)cc1OCC=C(Cl)Cl	Nevirapine-resistant isolate (RT V106A)	RT-V106A	syncytia	10 µg/mL
O=C1C(O)=C(C2=C(C3=C(O)C(=O)c4ccccc4C3=O)C(=O)c3ccccc3C2=O)C(=O)c2ccccc21	IIIB	-	cytopathic effect / MTT	11 µM
Cc1cn([C@H]2C[C@H](N=[N+]=[N-])[C@@H](COP(=O)(OCCC#N)OC3CCC4(C)C(=CCC5C4CCC4(C)C(C(C)CCCC(C)C)CCC54)C3)O2)c(=O)[nH]c1=O	-	-	cytopathic effect / MTT	5.67 µM
CCc1c(Sc2cc(C)cc(C)c2)n(COCCO)c(=S)[nH]c1=O	IIIB	-	syncytia	0.004 µM
O=C(O)c1ccc(CS(=O)(=O)c2cccc[n+]2[O-])cc1	IIIB	-	syncytia	>100 µg/mL
Nc1cccc2cc3ccccc3nc12	-	-	-	>50 µM
N#C/C(=C1\SC(=O)CN1c1ccccc1)c1nc2ccccc2o1	-	-	cytopathic effect / XTT	>200 µM
Cc1cc(S(=O)(=O)Nc2nnc3c4ccccc4cnn23)c(S)cc1Cl	RF	-	cytopathic effect / XTT	3.6 µM
CC(C)(C)c1ccc(NC(=O)c2ccccc2SSc2ccccc2C(=O)Nc2ccc(C(C)(C)C)cc2)cc1	-	-	cytopathic effect / XTT	10 µM
Cc1ccc(C)c(C(Cc2ccccc2)Sc2cccc[n+]2[O-])c1	IIIB	-	syncytia	>0.8 µg/mL
O=C1O[C@](C#CC2CC2)(C(F)(F)F)c2cc(Cl)ccc2N1CN1CCN(c2ccc(F)cc2)CC1	IIIB	-	MTT	0.0036 µM
COc1ccc(CS(=O)c2cccc[n+]2[O-])cc1	IIIB	-	syncytia	>0.8 µg/mL
Cc1occc1C(=O)Nc1ccc(Cl)c(/C=N/N(C)C)c1	L-697 661-resistant RT Y181C	RT-Y181C	syncytia	<2 µg/mL
CC(C)(C)NC(=O)[C@@H]1CN(Cc2cccnc2)CCN1C[C@@H](O)C[C@@H](Cc1ccccc1)C(=O)N[C@H]1c2ccccc2C[C@H]1OC(=O)CCCCOc1ccc(C[C@H](N)C(=O)O)cc1	LAI	-	RT activity	0.009 µM
Cc1cc(S(=O)(=O)n2cccc2)c(Sc2cc(Cl)c(C)cc2S(=O)(=O)n2cccc2)cc1Cl	-	-	cytopathic effect / XTT	>200 µM
N#C/C(=C1\SC(=O)CN1c1ccc(Cl)cc1)c1nc2ccccc2o1	-	-	cytopathic effect / XTT	35.7 µM
CC(C)(C)NC(=O)[C@@H]1CN(Cc2cccnc2)CCN1C[C@@H](O)C[C@@H](Cc1ccccc1)C(=O)N[C@H]1c2ccccc2C[C@H]1OC(=O)CCCCOc1ccc(C[C@H](NC(=O)OC(C)(C)C)C(=O)O)cc1	LAI	-	RT activity	0.22 µM
CCCC(Sc1cccc[n+]1[O-])c1cc(C)ccc1C	IIIB	-	syncytia	>4 µg/mL
O=C1O[C@](C#CC2CC2)(C(F)(F)F)c2cc(Cl)ccc2N1CN1CCN(c2ccccc2)CC1	IIIB	-	MTT	0.003 µM
Cc1c(Cl)c(Cl)c(CS(=O)(=O)c2cccc[n+]2[O-])c(Cl)c1Cl	IIIB	-	syncytia	≥0.8 µg/mL
C[C@H](NC(=O)c1ccccc1SSc1ccccc1C(=O)N[C@@H](C)C(=O)O)C(=O)O	-	-	cytopathic effect / XTT	38 µM
CCCCCCCC/C=C\CCCCCCCC(=O)OCC(COC(=O)CCCCCCC/C=C\CCCCCCCC)OC(=O)CCC(=O)O[C@@H]1Cc2ccccc2[C@@H]1NC(=O)[C@H](Cc1ccccc1)C[C@H](O)CN1CCN(Cc2cccnc2)C[C@H]1C(=O)NC(C)(C)C	LAI	-	RT activity	2.1 µM
CC(C)c1c(Sc2ccccc2)n(COCc2ccccc2)c(=S)[nH]c1=O	IIIB	RT-E138K	syncytia	0.05 µM
C/C(Cl)=C/COc1cc(NC(=O)c2ccoc2C)ccc1Cl	TSAO-m3T-resistant (RT E138K)	RT-E138K	syncytia	0.32 µg/mL
COc1ccc2c(c1)C(=O)C(Cl)=C(C1=C(Cl)C(=O)c3ccccc3C1=O)C2=O	IIIB	-	cytopathic effect / MTT	7.1 µM
CCOCn1c(Cc2ccccc2)c(C(C)C)c(=O)[nH]c1=O	IIIB	RT-Y188H	syncytia	17 µM
CC(C)=CCCC1(C)C=Cc2c(ccc3c2C(=O)C(=O)C(C2=C(I)C(=O)c4ccccc4C2=O)=C3O)O1	IIIB	-	cytopathic effect / MTT	1.7 µM
Cc1cc(S(=O)(=O)n2cccc2)c(SC/C(=N\NC(=O)Nc2ccccc2)c2ccc(Br)cc2)cc1Cl	-	-	cytopathic effect / XTT	5.1 µM
Cc1cccc(C(C#N)S(=O)c2cccc[n+]2[O-])c1	IIIB	-	syncytia	>0.16 µg/mL
CC(C)(C)NC(=O)[C@@H]1CN(Cc2cccnc2)CCN1C[C@@H](O)C[C@@H](Cc1ccccc1)C(=O)N[C@H]1c2ccccc2C[C@H]1OC(=O)[C@H](Cc1ccccc1)NC(=O)OC(C)(C)C	LAI	-	RT activity	0.43 µM
Clc1ccc(CSc2ccccn2)cc1	IIIB	-	syncytia	≥1 µg/mL
Cc1cn([C@H]2C[C@H](F)[C@@H](CO)O2)c(=O)n(CCF)c1=O	IIIB	-	microscopy	50 µg/mL
CC(C)=CCC[C@]1(C)C=Cc2c(ccc3c2C(=O)C(=O)C(C2=C(Cl)C(=O)c4ccccc4C2=O)=C3O)O1	IIIB	-	cytopathic effect / MTT	0.4 µM
Nc1ccc2nc3ccccc3cc2c1	-	-	-	>50 µM
Cc1occc1C(=O)Nc1ccc(Cl)c(SCC=C(Cl)Cl)c1	Pyridone-resistant (RT Y181C)	RT-Y181C	syncytia	2 µg/mL
COc1ccc2c(c1)C(=O)C(Cl)=C(C1=C(N)C(=O)c3ccccc3C1=O)C2=O	IIIB	-	cytopathic effect / MTT	2.2 µM
CCOCn1c(Cc2ccccc2)c(CC)c(=O)[nH]c1=O	IIIB (TIBO 82150) (RT-L100I)	RT-L100I	syncytia	0.08 µM
O=[N+]([O-])c1ccc(CS(=O)(=O)c2cccc[n+]2[O-])cc1	IIIB	-	syncytia	>4 µg/mL
Cc1cc(S(=O)(=O)NC2=NCCN2)c(SCC(N)=O)cc1Cl	-	-	cytopathic effect / XTT	113 µM
O=C(NC1CC1)c1ccccc1SSc1ccccc1C(=O)NC1CC1	-	-	cytopathic effect / XTT	24 µM
N#CC(C(=S)NCc1ccccc1)c1nc2ccccc2o1	-	-	cytopathic effect / XTT	32.9 µM
CC(C)CS[C@@H]1C[C@H](n2cnc3c(N)ncnc32)[C@@H](O)[C@H]1O	IIIB	-	cytopathic effect / syncytia / trypan blue	>50 µg/mL
COc1ccc(NC(=S)c2ccoc2C)cc1OCC=C(Cl)Cl	HEPT-resistant (RT Y188H)	RT-Y188H	syncytia	10 µg/mL

Again, the opening 5 rows:

compound | strain | mutations | read by | result
C=CCC(c1cc(C)ccc1C)S(=O)(=O)c1cccc[n+]1[O-] | IIIB | - | syncytia | 10 µg/mL
Cc1occc1C(=S)Nc1ccc(Cl)c(SCC=C(Cl)Cl)c1 | TIBO R82913-resistant (RT K103N) | RT-K103N | syncytia | 0.08 µg/mL
Cc1c(O)cccc1C(=O)N[C@@H](CSc1ccccc1)[C@@H](CN1C[C@H]2CCCC[C@H]2C[C@H]1C(=O)NC(C)(C)C)OC(=O)NCCCCOc1ccc(C[C@H](N)C(=O)O)cc1 | LAI | - | RT activity | >10 µM
COc1ccc(C2C(C#N)=C(N)N3C(=C2C#N)Oc2ccccc23)cc1 | - | - | cytopathic effect / XTT | >200 µM
CC(C)c1c(Sc2ccccc2)n(COCCO)c(=O)[nH]c1=O | IIIB | RT-Y188H | syncytia | >10 µM

Rows are shuffled and stem from different studies. An empty or dashed field is not shown.